Experimental data published in PubChem BioAssay (NCATS).
Only a part is listed here, and it is no random draw. Inconclusive results are not listed. Active and inactive are the calls of the source. Calls follow the shape of the dose curve; as a rule, active = well fitted inhibition curve with a large enough effect; inconclusive = small, poorly fitted or top-dose-only effect; inactive = flat fitted curve, though single readings scatter.

Experiments:
Experiment in all cases: qHTS profiling for inhibitors of Plasmodium falciparum proliferation (AID 504749); also: nearly all actives have a fitted effect of over 60% in size;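 as to activity, negative = inhibition: 0% = DMSO vehicle and full inhibition = artemisinin control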
TAB109 = conditions: P. falciparum in erythrocytes, SYBR Green DNA, 72 h; series mostly up to 28.7 µM
In short: (§1)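 Readout was DNA-dye fluorescence from lysed cultures, ex 485/em 535 nm. Parasitized red cells had grown 72 h with compound; data scaled between 0.29 uM artemisinin and DMSO wells and corrected using vehicle-only plates.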

TAB113 = conditions: P. falciparum in erythrocytes, SYBR Green DNA, 72 h; at 28.7 µM (top of the series) unless noted
In short: as §1

TAB165 = conditions: P. falciparum in erythrocytes, SYBR Green DNA, 72 h; at 28.7 µM (top of the series) unless noted
In short: as §1

SC27B = conditions: P. falciparum in erythrocytes, SYBR Green DNA, 72 h; at 28.7 µM (top of the series) unless noted
In short: as §1

W2 = conditions: P. falciparum in erythrocytes, SYBR Green DNA, 72 h; at 28.7 µM (top of the series) unless noted
In short: as §1
Potency is read from the fitted curve at half-maximal effect.

Row | SMILES | Potency (TAB109) | activity, negative = inhibition (TAB113) | activity, negative = inhibition (TAB165) | activity, negative = inhibition (SC27B) | activity, negative = inhibition (W2)
1 | O=[N+]([O-])OCC(CO[N+](=O)[O-])(CO[N+](=O)[O-])CO[N+](=O)[O-] | active: 8.91 µM | inactive: -2.73% | inactive: -7.97% | – | –
2 | CC(C)OP(=O)(F)OC(C)C | inactive | inactive: 22% | inactive: -0.988% | inactive: 1.32% | –
3 | C/C1=C2N=C(/C=C3N=C(/C(C)=C4\[N-][C@@](C)([C@H]5N=C1[C@@](C)(CCC(=O)NC[C@H](C)OP(=O)([O-])O[C@@H]1[C@H](O)[C@H](n6cnc7cc(C)c(C)cc76)O[C@@H]1CO)[C@@H]5CC(N)=O)[C@](C)(CC(N)=O)[C@H]4CCC(N)=O)[C@@](C)(CC(N)=O)[C@@H]\3CCC(N)=O)C(C)(C)[C@@H]/2CCC(N)=O.[C-]#N.[Co+3] | inactive | inactive: -3.5% [at 12.8 µM] | inactive: 9.65% [at 12.8 µM] | inactive: 2.19% [at 12.8 µM] | inactive: 0.456% [at 12.8 µM]
4 | O=[N+]([O-])c1cccc([N+](=O)[O-])c1 | inactive | inactive: 11.7% | inactive: -0.0221% | inactive: 6.04% | inactive: -10.6%
